Pooled drug test results. Numbers come from NIAID ChemDB, via PubChem.

Common to all: target-level tests

Inhibition is in % at the dose shown (toxicity tests: loss of growth or viability). An empty or dashed field is not shown. ICn: concentration for n% inhibition. Fold resistance: result on the changed form divided by that on wild type. Conditions beyond the fields shown may differ between rows.

SMILES,read by,organism,strain,conditions,measure,mutations,dose,protein,result
O=[N+]([O-])c1cc(S(=O)(=O)c2ccc(S)c([N+](=O)[O-])c2)ccc1S,strand transfer,HIV-2,-,-,IC50,-,-,Integrase,2.2 µM
CCOC(=O)C(C(=O)OCC)c1cn(S(=O)(=O)c2ccc(C)cc2)c2ccc(NC(=O)c3ccc(F)cc3Cl)cc12,strand transfer / fluorescence,HIV-1,-,-,fold resistance,Y143R,-,Integrase,1
CC[C@H]1C=CCC[C@@]2(C[C@@H]3CC[C@@H]4[C@H](C(=O)OCCCCCCCCCCC(=O)N(CCC[NH3+])C[C@@H](O)CC[NH3+])[C@]5(CCC[C@@H](C)O5)NC(=[N+]34)N2)O1,ELISA,HIV-1,NL4-3,-,inhibition,-,5 µM,Nef,89.5%
CC(C)[C@H](NC(=O)c1ccc2ccccc2n1)C(=O)N[C@@H](Cc1ccccc1)[C@H](O)CN1CC[C@@H](SCc2cccnc2)C[C@H]1C(=O)NC(C)(C)C,fluorescence,HIV,-,-,Ki,PR-V32I M46I A71V I84A,-,Protease,0.02017 µM
CC[C@H](C)[C@@H](NC(=O)[C@@H](C[C@H](O)[C@H](CC(C)C)NC(=O)[C@H](Cc1cnc[nH]1)NC(=O)[C@H](Cc1ccccc1)NC(=O)[C@@H]1CCCN1C(=O)[C@@H](N)Cc1cnc[nH]1)C(C)C)C(=O)N[C@@H](Cc1cnc[nH]1)C(=O)O,HPLC,HIV-2,-,pH 4.7,Ki,-,-,Protease,0.035 µM
COC(=O)c1ccc(CN2[C@H](COc3ccccc3)[C@H](O)[C@@H](O)[C@@H](COc3ccccc3)N(Cc3ccc(C(=O)OC)cc3)S2(=O)=O)cc1,-,HIV-1,-,-,fold resistance,PR-G48V L90M,-,Protease,1.13
CC[C@H](C)[C@H](N)C(=O)O.[Na+],p24 / ELISA,HIV-1,-,-,IC50,-,-,Capsid,0.51 µM
O=c1c2cccn2c2cc(Cl)c(Cl)cc2n1CCNC(=S)Nc1ccc(Br)cn1,nucleotide incorporation,HIV-1,-,-,fold resistance,RT-Y181I,-,Reverse transcriptase,15
O=C(NCCNC(=O)c1cc2cc(O)c(O)cc2[nH]1)c1cc2cc(O)c(O)cc2[nH]1,RNase H / fluorescence,HIV-1,-,-,IC50,-,-,RNase H + Reverse transcriptase,24 µM
CCCCCCCCC[C@@H]1C[C@@H]2CC[C@H]3C(C(=O)OC(C)(C)C)=C(C)NC(=[N+]23)N1,ELISA,HIV-1,NL4-3,-,inhibition,-,5 µM,Nef,96.8%
CC1CNc2c(cccc2S(=O)(=O)N[C@@H](CCCN=C(N)N)C(=O)N2CC[C@@H](C)C[C@@H]2C(=O)O)C1,AlphaScreen,HIV-1,-,-,inhibition,-,10 µM,Integrase,7.29%
COc1cc2ccc(=O)oc2c(O)c1O,ELISA,HIV-1,-,-,inhibition,-,50 µg/mL,gp41,29%
O=C(O)C1(O)C[C@@H](O)C(O)[C@H](O)C1,RNase H,HIV-1,-,-,IC50,-,-,RNase H,>260 µM
Nc1ccn([C@H]2CC[C@@H](COP(=O)(O)OP(=O)(O)OP(=O)(O)O)O2)c(=O)n1,nucleotide incorporation / radiometric,HIV-1,-,-,Ki,RT-Q151M,-,Reverse transcriptase,0.66 µM
Cc1cc(SC2=C(O)C[C@@](CCc3ccc(O)cc3)(C(C)C)OC2=O)c(C(C)(C)C)cc1N,-,HIV,-,-,fold resistance,PR-V32I,-,Protease,6
Nc1nc2c(ncn2[C@H]2CC[C@@H](COP(=O)(O)OP(=O)(O)OP(=O)(O)O)O2)c(=O)[nH]1,nucleotide incorporation / radiometric,HIV,-,-,IC50,RT-N137H,-,Reverse transcriptase,0.7 µM
CNC(=O)[C@@H](NC(=O)[C@H](OCc1ccccc1)[C@H](O)[C@@H](O)[C@@H](OCc1ccccc1)C(=O)N[C@H]1c2ccccc2C[C@H]1O)C(C)C,-,HIV,-,-,Ki,PR-L90M,-,Protease,0.00045 µM
O=C(O)C(=O)/C=C(\O)c1cn(Cc2ccc(F)cc2)c2ccc(Br)cc12,strand transfer / fluorescence,HIV-1,-,-,fold resistance,G140S,-,Integrase,1
O=Cc1cc(S(=O)(=O)c2ccc(O)c(C=O)c2)ccc1O,3′ processing,HIV-2,-,-,IC50,-,-,Integrase,1.5 µM
CC(C(=O)O)c1cccc(Oc2ccccc2)c1,AlphaScreen,HIV-1,-,-,inhibition,-,10 µM,Integrase,2.61%
CC(C)[C@H](NC(=O)c1ccc2ccccc2n1)C(=O)N[C@@H](Cc1ccccc1)[C@H](O)CN1CC[C@@H](OCc2ccncc2)C[C@H]1C(=O)NC(C)(C)C,fluorescence,HIV-2,ROD,-,Ki,-,-,Protease,0.000134 µM
O=C(O[C@@H]1Cc2c(O)cc(O)cc2O[C@@H]1c1cc(O)c(O)c(O)c1)c1cc(O)c(O)c(O)c1,fluorescence,HIV-1,-,-,inhibition,-,100 µM,gp120,50%
CO[P@](=O)(c1cc(C)cc(/C=C/C#N)c1)c1c(C(N)=O)[nH]c2ccc(Cl)c(F)c12,-,HIV,-,-,IC50,L1001,-,Reverse transcriptase,0.16 µM
CC(O)/C=C/c1ccc2c(c1)c(C(=O)/C=C1\OC(C)(C)OC1=O)cn2Cc1ccc(F)cc1,strand transfer / fluorescence,HIV-1,-,-,fold resistance,Y143R,-,Integrase,1
C=CCOC(=O)C1=C(CCCCC[C@@H](C)O[Si](C)(C)C(C)(C)C)NC2=[N+]3[C@H](CC[C@@H]13)C[C@H](C)N2,ELISA,HIV-1,NL4-3,-,inhibition,-,5 µM,Nef,95.8%
Cc1cccc(C)c1OCC(=O)N[C@@H](Cc1ccccc1)[C@H](O)CN1CC[C@@H](Sc2ccncc2)C[C@H]1C(=O)NC(C)(C)C,fluorescence,HIV,-,-,fold resistance,PR-L23I V32I M46I I47V I54M A71V I84V,-,Protease,12400
CC(=O)c1ccc(C)cc1NC(C(N)=O)c1c(Cl)cccc1Cl,nucleotide incorporation,HIV-2,ROD,-,IC50,-,-,Reverse transcriptase,1384 µM
Cc1cn([C@@H]2O[C@H](CO[Si](C)(C)C(C)(C)C)C3(OS(=O)(=O)C=C3N)[C@H]2O[Si](C)(C)C(C)(C)C)c(=O)n(C)c1=O,nucleotide incorporation / radiometric,HIV,-,-,IC50,RT-P95A,-,Reverse transcriptase,0.9 µM
CC[C@H]1C=CCC[C@@]2(C[C@@H]3CC[C@H]4[C@H](C(=O)OCCCCCCCCCCCCCCCC(=O)N(CCC[NH3+])C[C@@H](O)CC[NH3+])[C@@]5(CCC[C@@H](C)O5)NC(=[N+]34)N2)O1,ELISA,HIV-1,NL4-3,-,IC50,-,-,Nef,<5 µM
Cc1c(Sc2ccccc2)n(COCCO)c(=O)[nH]c1=O,-,HIV,-,-,IC50,RT-Y181I Y188L,-,Reverse transcriptase,>5 µM
O=c1cnc2ccccc2n1CCNC(=S)Nc1ccc(Br)cn1,nucleotide incorporation,HIV-1,-,-,Ki,RT-K103N,-,Reverse transcriptase,0.62 µM
CCOC(=O)C(C(=O)OCC)c1cn(S(=O)(=O)c2ccc(C)cc2)c2ccc(NC(=O)c3cc(F)c(F)c(F)c3)cc12,strand transfer / fluorescence,HIV-1,-,-,fold resistance,Y143R,-,Integrase,1
CC(C)(O)c1ccccc1CC[C@@H](SCC1(CC(=O)O)CC1)c1cccc(/C=C/c2ccc3ccc(Cl)cc3n2)c1,AlphaScreen,HIV-1,-,-,inhibition,-,10 µM,Integrase,16.03%
N#CC(C#N)=NNc1ccc(S(=O)(=O)c2ccc(NN=C(C#N)C#N)cc2)cc1,strand transfer,HIV-2,-,-,IC50,-,-,Integrase,38 µM
CCCCCCC[C@H](O)C[C@@H]1CC[C@H]2C(C(=O)O[C@H](C)CCCCCCC[C@@H]3C[C@@H]4CC[C@@H]5C[C@H](C)NC(=[N+]54)N3)=C(C)NC(N)=[N+]12,ELISA,HIV-1,NL4-3,-,inhibition,-,5 µM,Nef,86.8%
Nc1ncnc2c1ncn2[C@@H]1O[C@H](COP(=O)(O)OP(=O)(O)OP(=O)(O)O)C[C@@H]1F,nucleotide incorporation / radiometric,HIV-1,-,-,Ki,-,-,Reverse transcriptase,2.6 µM
O=C(NCCCN1CCN(CCCNC(=O)c2cc3cc(O)c(O)cc3[nH]2)CC1)c1cc2cc(O)c(O)cc2[nH]1,RNase H / fluorescence,HIV-1,-,-,IC50,-,-,RNase H + Reverse transcriptase,>100 µM
CC(C)C[C@H](N)C(=O)O.[Na+],p24 / ELISA,HIV-1,-,-,IC50,-,-,Capsid,0.71 µM
CC(C)(Oc1ccc(CCNC(=O)c2ccc(Cl)cc2)cc1)C(=O)O,AlphaScreen,HIV-1,-,-,inhibition,-,10 µM,Integrase,28.45%
O=NNc1ccc(S(=O)(=O)c2ccc(NN=O)cc2)cc1,strand transfer,HIV-2,-,-,IC50,-,-,Integrase,12 µM
COC(O)/C=C/c1ccc2c(c1)c(C(=O)/C=C1\OC(C)(C)OC1=O)cn2Cc1ccc(F)cc1,strand transfer / fluorescence,HIV-1,-,-,fold resistance,Y143R,-,Integrase,1
O=c1c2cccn2c2ccccc2n1CCNC(=S)Nc1ccc(Cl)cn1,nucleotide incorporation,HIV-1,-,-,fold resistance,RT-Y188L,-,Reverse transcriptase,>50
Cc1cn([C@H]2C=C[C@@H](COP(=O)(O)OP(=O)(O)OP(=O)(O)O)O2)c(=O)[nH]c1=O,nucleotide incorporation / radiometric,HIV,-,-,fold resistance,RT-N137K,-,Reverse transcriptase,17.4
O=C1N(Cc2ccc(CO)cc2)[C@H](COc2ccccc2)[C@H](O)[C@@H](O)[C@@H](COc2ccccc2)N1Cc1ccc(CO)cc1,fluorescence,HIV,-,-,fold resistance,PR-V82A,-,Protease,1.04
O=C(NCCc1ccc(O)c(O)c1)c1cc2cc(O)c(O)cc2[nH]1,RNase H / fluorescence,HIV-1,-,-,IC50,-,-,RNase H + Reverse transcriptase,17 µM
O=C(/C=C/c1ccc(O)c(O)c1)O[C@@H]1CC(O)(C(=O)O)C[C@@H](OC(=O)/C=C/c2ccc(O)c(O)c2)C1O,-,HIV-1,-,-,IC50,-,-,RNase H,>>97 µM
Nc1nc2c(ncn2[C@H]2C[C@H](O)[C@@H](COP(=O)(O)OP(=O)(O)OP(=O)(O)O)O2)c(=O)[nH]1,nucleotide incorporation / radiometric,HIV-1,-,-,fold resistance,RT-T215Y,-,Reverse transcriptase,0.6
CC1(C)OC(=O)/C(=C/C(=O)c2cn(Cc3cc(F)ccc3F)c3ccc(Br)cc23)O1,strand transfer / fluorescence,HIV-1,-,-,fold resistance,Y143R,-,Integrase,1
Cc1cc2c(cc1C)n1cccc1c(=O)n2CCNC(=S)Nc1ccc(Br)cn1,nucleotide incorporation,HIV-1,-,-,fold resistance,RT-K103N,-,Reverse transcriptase,4
COc1ccc2c(c1)c(CC(=O)O)c(C)n2C(=O)c1ccc(Cl)cc1,AlphaScreen,HIV-1,-,-,inhibition,-,10 µM,Integrase,30.42%
O=c1ccc2cc(O)c(O)cc2o1,ELISA,HIV-1,-,-,inhibition,-,50 µg/mL,gp41,31%
O=C1c2cccnc2C(=O)N1CCNC(=S)Nc1ccc(Br)cn1,nucleotide incorporation,HIV-1,-,-,Ki,RT-Y188L,-,Reverse transcriptase,0.6 µM
Nc1ncnc2c1ncn2[C@H]1CC[C@@H](COP(=O)(O)OP(=O)(O)OP(=O)(O)O)O1,nucleotide incorporation / radiometric,HIV-1,-,-,Ki,RT-A62V V75I F77L F116Y Q151M,-,Reverse transcriptase,3.3 µM
CC(C)[C@H](N)C(=O)O.[Na+],p24 / ELISA,HIV-1,-,-,IC50,-,-,Capsid,0.68 µM
Cc1ccc(S(=O)(=O)n2cc(/C(O)=C/C(=O)C(=O)O)c3cc(F)ccc32)cc1,strand transfer / fluorescence,HIV-1,-,-,fold resistance,Y143R,-,Integrase,8
COc1cc2ccc(=O)oc2c(O[C@@H]2O[C@H](CO)[C@@H](O)[C@H](O)[C@H]2O)c1O,ELISA,HIV-1,-,-,IC50,-,-,gp41,>50 µg/mL
CCOCn1c(Cc2ccccc2)c(C(C)C)c(=O)[nH]c1=O,nucleotide incorporation,HIV-2,EHO,-,IC50,RT-S102L,-,Reverse transcriptase,>1656 µM
O=c1ccc2cc(O[C@@H]3O[C@H](CO)[C@@H](O)[C@H](O)[C@H]3O)c(O)cc2o1,ELISA,HIV-1,-,-,IC50,-,-,gp41,>50 µg/mL
COC(=O)C(Cc1ccccc1)NC(=O)[C@@H](NC(=O)[C@@H](C[C@H](O)[C@H](CC1CCCCC1)NC(=O)[C@@H](NC(=O)[C@H](Cc1ccccc1)CS(=O)(=O)C(C)(C)C)C(C)C)C(C)C)C(C)C,nucleotide incorporation,HIV-2,EHO,-,IC50,-,-,Reverse transcriptase,>1553 µM
CC[C@H]1C=CCC[C@@]2(C[C@@H]3CC[C@@H]4[C@H](C(=O)OCc5ccccc5)[C@]5(CCC[C@@H](C)O5)NC(=[N+]34)N2)O1,ELISA,HIV-1,NL4-3,-,IC50,-,-,Nef,<5 µM
Cc1cc(SC2=C(O)C[C@@](CCc3ccc(O)cc3)(C(C)C)OC2=O)c(C(C)(C)C)cc1N,HPLC,HIV,-,-,inhibition,-,1 µM,Protease,6.8%

3 of the rows above, restated:

CC(C)[C@H](N)C(=O)O.[Na+] ; read by: p24 / ELISA ; organism: HIV-1 ; measure: IC50 ; protein: Capsid ; result: 0.68 µM
COC(=O)c1ccc(CN2[C@H](COc3ccccc3)[C@H](O)[C@@H](O)[C@@H](COc3ccccc3)N(Cc3ccc(C(=O)OC)cc3)S2(=O)=O)cc1 ; organism: HIV-1 ; measure: fold resistance ; mutations: PR-G48V L90M ; protein: Protease ; result: 1.13
Cc1cc(SC2=C(O)C[C@@](CCc3ccc(O)cc3)(C(C)C)OC2=O)c(C(C)(C)C)cc1N ; read by: HPLC ; organism: HIV ; measure: inhibition ; dose: 1 µM ; protein: Protease ; result: 6.8%